Reference: the supplement of paper PMC9931576
Human monoclonal antibodies against the spike receptor-binding domain (heavy:light variable regions). IC50 against pseudoviruses bearing the spike of naturally observed variants; lower = stronger; >10 µg/ml means not reached at the top dose. No active / inactive call. The stated detection limit is 0.0005 µg/ml; values near or below 0.001 µg/ml lie at the floor of the assay.

B1: BD55-6343 (protein)
chain 1: EVQLVQSGAEVKKPGESLKISCKASGYRFSSHWIGWVRQMPGKGLEWMGIIYPDDSDTRYSPSFQGQVIISADKSISTAYLQWSSLKASDSATYYCARPMIRGVYYGMDVWGHGTTVTVSS
chain 2: DIQMTQSPSSLSASAGDRVTITCQASQDISSYLNWYQHKPGKAPKLLIYDASTLETGVPSRFSGSGSGTVFTFTISSLQPEDIATYYCQQWYDLPLTFGGGTKVEIK
B2: BD55-6339 (protein)
chain 1: QVQLQESGPGLVKPSQTLSLTCTVSGGSISSGSYYWSWIRQPAGKGLEWIGRIHTRGNTNSKPSLKSRVIISLDTSKNQFSLRLSSVTAADTAVYYCARDLDEARRGYSGYDLVGDAMDVWGQGTTVTVSS
chain 2: QSVLTQPPSVSGAPGQRVTISCTGSSSNIGAGYDVHWYQQLPGTAPKLLIYNNNNRPSGVPDRFSGSKSGTSASLAITGLQAEDEADYYCQSFDSSLTGSRVFGGGTKLTVL
B3: BD55-6323 (protein)
chain 1: QVQLVESGGGVVQPGRSLRLSCAASGFTFSDYGMHWVRQAPGKGLEWVAVIWNDGTYKYYADSVKGRFTISRDNSKNTLFLQMNSLRAEDTAVYYCARDSLCSGGNCYFDYNWFDPWGQGTLVTVSS
chain 2: EIVLTQSPATLSLSPGERATLSCRASQSVSSNLAWYQQKPGQAPRLLISDASNRATGIPARFSGSGSGTDFTLTISSLEPEDFAVYYCQQRHTWPPAYTFGQGTKLEIK
B4: BD55-6336 (protein)
chain 1: QVQLVESGGGVVQPGKSVRLSCTSSGFTFSSYAIHWVRQAPGKGLEWVAVMSYDGSNEYVADSVKDRFTISRDNSKNTLYLQMNSLRAEDTAIYYCARDGTTWGYFFFYMDVWGKGTTVTVSS
chain 2: DIVLTQSPGTLSLSPGERATLSCRARQSVSSSYLAWYQQKPGQAPRLLIYDASTRATGIPDRFSGSGSGTDFTLTISRLEPEDSAVYYCQQYAKSVKTFGQGTKVEIK
B5: BD55-6332 (protein)
chain 1: QVLLVQSGAEVKKPGASVKVSCKASGYTFSNYGISWVRQAPGQGLEWMGWVSAYKDNTLHAHKFQGRVTMTTDTSTNTAYMQLKSLRSDDTAIYYCAREAGTLSVRFDPWGQGTLVTVSS
chain 2: DVQMTQSPSSLSASVGDRVTITCRASQSISNYLNWYQQKPGKAPKLLIYDASSLQGGVPSRFSGSGSGTDFTLTITSLQPEDFATYFCQQSYITPPYTFGQGTKLEIK
B6: BD55-1223 (protein)
chain 1: ELQLVESGGGLVQPGGSLRLSCIGSGYSINSYSMSWVRQAPGKGLEWVAYISTSSRTMYYADSVKGRFTISRDYGENSLSLEMNSLRAEDTAVYYCHIEPVPAAMGFDHWGQGTLVTVSS
chain 2: DIQMTQSPSSLSASIGDRVTITCRASQDIRNSLAWYQQKPGKAPKLLIYAASTLQSGVPSRFRGSGSGTDFTLSISSLQPEDVATYYCQKYDSALRTFGQGTKVEIK
B7: BD55-6347 (protein)
chain 1: DVQLAESGGGLAQPGGSLRLSCVVSGVTFSGCDMNWVRQVPGKGLEWVSHSSTGSNTYYADSVRGRFTVSRDNARKSVYLQMDSVRVDDTAVYYCASDCGEPLGLTNPYRGTLFDHWGQGMLVTVSS
chain 2: QSVLTQPPSVSGAPGQRVTISCTGSSSNIGAGYAVHWYQQLPGTAPRLLIFGNNNRPSGVPDRFSGSKSGTSASLAITGLQAEDEGDYYCQSYDSSPSVLYVFGTGTKVSVL
B8: BD55-6331 (protein)
chain 1: QLQLQESGPGLVKPSETLSLTCTVSGGSISSSSYYWGWIRQPPGKGLEWIGNVYFGGSTFYNPSLKSRVTISVDTSKNLFSLKLTSVTAADTAVYYCAVLRGYSYGYDAFDIWGQGTMVTVSS
chain 2: DIQMTQSPSSLSASVGDRVTITCRASQSISNYLNWYQQKPGKVPKLLIYAASSLQSGVPSRFSGSGSGTDFTLTISSLQPEDFATYYCQQSYSPALVTFGPGTKVQIK
B9: BD55-6341 (protein)
chain 1: QVQLVESGGRVVQPGRSLRLSCAVSGITFSHYGMHWVRQAPGKGLEWVAVISYDGSDRYYGDSVKGRFSITRDDSKNTVYLQMNSLRTEDTAVYYCAKNMGPYCGGGNCYGGYLDYWGQGTLVTVSS
chain 2: DIQMTQSPSSLSASVGDRVTITCQASQDIRNYLNWYQQKPGKAPKLLIYDASNLETGVPSRFSGSGSGTDFTFTISSLQPEDFATYYCHQYDSVPYTFGQGTKLEIK
B10: BD55-6329 (protein)
chain 1: EVQLVESGGGLIQPGGSLRLSCAASGFTVSRNLMGWVRQAPGKGLEWLAVIYSGGTTYFADSVRGRFTISRDNSKNTLSLQMNSLTAEDTAVYYCAGEQGSGRWRGTLFDSWGQGTLVTVSS
chain 2: QSVLTQPPSVSGAPGQRVTISCTGSSSNIGAGYDVHWYQQLPGTAPKLLMYGNSNRPSGVPDRFSGSKSGTSASLTITGLQAEDEADYYCQSYDSSLSVLYVFGSGTRVTVL
B11: BD55-6327 (protein)
chain 1: EVQLLDSGGGLVQPGGSLRLSCAASGFTFSAYAMTWVRQAPGKGLEWVSSITDSGAGAFYADSVKGRFTVSRDNSKNTLYLQMNSLRAEDTAVYYCAREILVPTAMVFDSWGQGALVSVSS
chain 2: DIVMTQSPDSLAVSLGERATINCKSSQNVLYRADSKNYLAWYQQKPGQPPKLLIYWASTRESGVPDRFSGSGSGTDFTLTISSLQAEDVAVYYCQQYYSTPGITFGQGTRLEIK
B12: BD55-6335 (protein)
chain 1: EVQLLESGGGLVQPGGSLKLSCAASGFSFSNYAMTWVRQAPGKGLEWVTGISDSGGNTYYADSVKGRCTISRDNSKNMLYLQMNSLRAEDTAVYYCAKERGRGFGEPYAFDIWGQGTMVIVSS
chain 2: DIVMTQSPDSLAVSLGERATINCRSSQSVLYSSINRNYLAWYQQKPGQPPKLLIYWASTRESGVPDRFSGSGSGTDFTLTISTLQAEDAAVYYCQQYYATPLTFGGGTKVAIK

These binders were tested against SARS-CoV-2 Omicron BA.1 spike pseudovirus (assay: pseudovirus neutralization IC50; higher = weaker neutralization).
Description: (§1)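 Single-round VSV luciferase pseudovirus mixed with antibody dilutions for 1 h and put on Huh-7 cells for about a day; IC50 from the dose curve.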
For B1, the “pseudovirus neutralization IC50” value was greater than 10 µg/mL.
For B2, the “pseudovirus neutralization IC50” value was greater than 10 µg/mL.
B3 was tested, and the “pseudovirus neutralization IC50” value was greater than 10 µg/mL.
With B4 the “pseudovirus neutralization IC50” value was 3.52 µg/mL.
In the case of B5, the “pseudovirus neutralization IC50” value is reported as greater than 10 µg/mL.
With B6 the “pseudovirus neutralization IC50” value was greater than 10 µg/mL.
For B7, the “pseudovirus neutralization IC50” value was greater than 10 µg/mL.
B8 was tested, and the “pseudovirus neutralization IC50” value was greater than 10 µg/mL.
In the case of B9, the “pseudovirus neutralization IC50” value is reported as greater than 10 µg/mL.
B10 was tested, and the “pseudovirus neutralization IC50” value was 0.987 µg/mL.
For B11, the “pseudovirus neutralization IC50” value was greater than 10 µg/mL.
B12 was tested, and the “pseudovirus neutralization IC50” value was greater than 10 µg/mL.

These binders were tested against SARS-CoV-2 Omicron BA.2 spike pseudovirus in the same assay as above.
Description: as §1
B1 was tested, and the “pseudovirus neutralization IC50” value was greater than 10 µg/mL.
In the case of B2, the “pseudovirus neutralization IC50” value is reported as greater than 10 µg/mL.
For B3, the “pseudovirus neutralization IC50” value was greater than 10 µg/mL.
In the case of B4, the “pseudovirus neutralization IC50” value is reported as greater than 10 µg/mL.
In the case of B5, the “pseudovirus neutralization IC50” value is reported as greater than 10 µg/mL.
With B6 the “pseudovirus neutralization IC50” value was greater than 10 µg/mL.
In the case of B7, the “pseudovirus neutralization IC50” value is reported as greater than 10 µg/mL.
For B8, the “pseudovirus neutralization IC50” value was greater than 10 µg/mL.
With B9 the “pseudovirus neutralization IC50” value was greater than 10 µg/mL.
In the case of B10, the “pseudovirus neutralization IC50” value is reported as greater than 10 µg/mL.
For B11, the “pseudovirus neutralization IC50” value was greater than 10 µg/mL.
B12 was tested, and the “pseudovirus neutralization IC50” value was greater than 10 µg/mL.

Each binder was assayed against SARS-CoV-2 Omicron BA.2.75 spike pseudovirus in the same assay as above.
Description: as §1
B1 was tested, and the “pseudovirus neutralization IC50” value was greater than 10 µg/mL.
B2 was tested, and the “pseudovirus neutralization IC50” value was greater than 10 µg/mL.
For B3, the “pseudovirus neutralization IC50” value was greater than 10 µg/mL.
With B4 the “pseudovirus neutralization IC50” value was greater than 10 µg/mL.
In the case of B5, the “pseudovirus neutralization IC50” value is reported as greater than 10 µg/mL.
In the case of B6, the “pseudovirus neutralization IC50” value is reported as greater than 10 µg/mL.
In the case of B7, the “pseudovirus neutralization IC50” value is reported as greater than 10 µg/mL.
With B8 the “pseudovirus neutralization IC50” value was greater than 10 µg/mL.
In the case of B9, the “pseudovirus neutralization IC50” value is reported as greater than 10 µg/mL.
With B10 the “pseudovirus neutralization IC50” value was greater than 10 µg/mL.
In the case of B11, the “pseudovirus neutralization IC50” value is reported as greater than 10 µg/mL.
B12 was tested, and the “pseudovirus neutralization IC50” value was greater than 10 µg/mL.

These binders were tested against SARS-CoV-2 Omicron BA.5 spike pseudovirus in the same assay as above.
Description: as §1
B1 was tested, and the “pseudovirus neutralization IC50” value was greater than 10 µg/mL.
B2 was tested, and the “pseudovirus neutralization IC50” value was greater than 10 µg/mL.
In the case of B3, the “pseudovirus neutralization IC50” value is reported as greater than 10 µg/mL.
With B4 the “pseudovirus neutralization IC50” value was greater than 10 µg/mL.
B5 was tested, and the “pseudovirus neutralization IC50” value was greater than 10 µg/mL.
B6 was tested, and the “pseudovirus neutralization IC50” value was greater than 10 µg/mL.
For B7, the “pseudovirus neutralization IC50” value was greater than 10 µg/mL.
For B8, the “pseudovirus neutralization IC50” value was greater than 10 µg/mL.
For B9, the “pseudovirus neutralization IC50” value was greater than 10 µg/mL.
For B10, the “pseudovirus neutralization IC50” value was greater than 10 µg/mL.
B11 was tested, and the “pseudovirus neutralization IC50” value was greater than 10 µg/mL.
With B12 the “pseudovirus neutralization IC50” value was greater than 10 µg/mL.

What follows are binders tested against SARS-CoV-2 Omicron BQ.1.1 spike pseudovirus in the same assay as above.
Description: as §1
With B1 the “pseudovirus neutralization IC50” value was greater than 10 µg/mL.
B2 was tested, and the “pseudovirus neutralization IC50” value was greater than 10 µg/mL.
B3 was tested, and the “pseudovirus neutralization IC50” value was greater than 10 µg/mL.
In the case of B4, the “pseudovirus neutralization IC50” value is reported as greater than 10 µg/mL.
B5 was tested, and the “pseudovirus neutralization IC50” value was greater than 10 µg/mL.
With B6 the “pseudovirus neutralization IC50” value was greater than 10 µg/mL.
B7 was tested, and the “pseudovirus neutralization IC50” value was greater than 10 µg/mL.
For B8, the “pseudovirus neutralization IC50” value was greater than 10 µg/mL.
In the case of B9, the “pseudovirus neutralization IC50” value is reported as greater than 10 µg/mL.
B10 was tested, and the “pseudovirus neutralization IC50” value was greater than 10 µg/mL.
In the case of B11, the “pseudovirus neutralization IC50” value is reported as greater than 10 µg/mL.
B12 was tested, and the “pseudovirus neutralization IC50” value was greater than 10 µg/mL.

Each binder was assayed against SARS-CoV-2 Omicron XBB spike pseudovirus in the same assay as above.
Description: as §1
For B1, the “pseudovirus neutralization IC50” value was greater than 10 µg/mL.
B2 was tested, and the “pseudovirus neutralization IC50” value was greater than 10 µg/mL.
For B3, the “pseudovirus neutralization IC50” value was greater than 10 µg/mL.
With B4 the “pseudovirus neutralization IC50” value was greater than 10 µg/mL.
B5 was tested, and the “pseudovirus neutralization IC50” value was greater than 10 µg/mL.
In the case of B6, the “pseudovirus neutralization IC50” value is reported as greater than 10 µg/mL.
For B7, the “pseudovirus neutralization IC50” value was greater than 10 µg/mL.
B8 was tested, and the “pseudovirus neutralization IC50” value was greater than 10 µg/mL.
In the case of B9, the “pseudovirus neutralization IC50” value is reported as greater than 10 µg/mL.
In the case of B10, the “pseudovirus neutralization IC50” value is reported as greater than 10 µg/mL.
With B11 the “pseudovirus neutralization IC50” value was greater than 10 µg/mL.
B12 was tested, and the “pseudovirus neutralization IC50” value was greater than 10 µg/mL.

What follows are binders tested against SARS-CoV-2 early D614G spike pseudovirus in the same assay as above.
Description: as §1
B1 was tested, and the “pseudovirus neutralization IC50” value was greater than 10 µg/mL.
With B2 the “pseudovirus neutralization IC50” value was 1.07 µg/mL.
For B3, the “pseudovirus neutralization IC50” value was 1.42 µg/mL.
B4 was tested, and the “pseudovirus neutralization IC50” value was greater than 10 µg/mL.
In the case of B5, the “pseudovirus neutralization IC50” value is reported as 4.75 µg/mL.
For B6, the “pseudovirus neutralization IC50” value was 0.0757 µg/mL.
In the case of B7, the “pseudovirus neutralization IC50” value is reported as 1.19 µg/mL.
For B8, the “pseudovirus neutralization IC50” value was greater than 10 µg/mL.
For B9, the “pseudovirus neutralization IC50” value was greater than 10 µg/mL.
B10 was tested, and the “pseudovirus neutralization IC50” value was 3.74 µg/mL.
B12 was tested, and the “pseudovirus neutralization IC50” value was greater than 10 µg/mL.
